PubChem BioAssay AID624099 | ICCB-Longwood | 2012

Assay: 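Knock-downs relieving repression by E2 of an HPV18 LCR luciferase reporter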 (primary screen)
Cells: human C33A cervical carcinoma cells (HPV-negative) stably expressing BPV1 E2 and an HPV18 LCR luciferase reporter
Knock-down reagent: siRNA pool against human genes, 40 nM
Duration: 72 h
Detection: 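HPV18 LCR reporter light per well, converted to plate-wise z-scores that exclude control wells, and averaged over triplicate plates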
Scale: mean z-score and z-score: higher = stronger reporter signal, weaker E2 silencing
Active means: 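Mean z ≥ 2 together with z ≥ 2 in two or more of the three replicates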
This is a random part of about 21,000 reagents tested. In the full data, 497 (2.4%) got an active call. 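Higher z means weaker E2 silencing; only reporter increases were scored, and knock-downs that hurt cell survival may mask genuine repressor factors.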 Unmarked entries are inactive. No sequences are given here.

After knock-down of HIC1, the screen gave mean z-score 0.02; z-score, replicate A = -0.06; z-score, replicate B = -0.06; z-score, replicate C = 0.18.
After knock-down of GAS8-AS1 the results were mean z-score -0.52; z-score, replicate A = -0.21; z-score, replicate B = -0.51; z-score, replicate C = -0.84.
For LDHD, the values are mean z-score -0.56; z-score, replicate A = -0.26; z-score, replicate B = -0.29; z-score, replicate C = -1.12.
With knock-down of DPP3, the screen gave mean z-score 0.24; z-score, replicate A = -0.01; z-score, replicate B = 0.48; z-score, replicate C = 0.25.
Silencing of BLM came out at: mean z-score -0.13; z-score, replicate A = -0.1; z-score, replicate B = -0.19; z-score, replicate C = -0.12.
Depletion of NUP93 resulted in: mean z-score -0.55; z-score, replicate A = -0.27; z-score, replicate B = -0.56; z-score, replicate C = -0.81.
With knock-down of SPX the results were mean z-score 0.15; z-score, replicate A = -0.06; z-score, replicate B = 0.35; z-score, replicate C = 0.15.
FXYD3 gave mean z-score 1.19; z-score, replicate A = 1.31; z-score, replicate B = 1.22; z-score, replicate C = 1.05.
C19orf73 gave mean z-score 0.82; z-score, replicate A = 0.75; z-score, replicate B = 0.59; z-score, replicate C = 1.12.
Knock-down of LOC399975 gave: mean z-score -0.66; z-score, replicate A = -0.92; z-score, replicate B = -0.57; z-score, replicate C = -0.47.
After knock-down of KRTAP12-2, the screen gave mean z-score -0.51; z-score, replicate A = -0.22; z-score, replicate B = -0.87; z-score, replicate C = -0.45.
With knock-down of BKGD, the screen gave mean z-score -0.45; z-score, replicate A = -0.85; z-score, replicate B = -0.48; z-score, replicate C = -0.02.

Sorted by “z-score, replicate B” (ascending): 2 of the entries above
BLM → mean z-score: -0.13; z-score, replicate A: -0.1; z-score, replicate B: -0.19; z-score, replicate C: -0.12
DPP3 → mean z-score: 0.24; z-score, replicate A: -0.01; z-score, replicate B: 0.48; z-score, replicate C: 0.25
